The results in this text go back to the supplement of paper PMC9931576.

Human monoclonal antibodies against the spike receptor-binding domain (heavy:light variable regions). IC50 against pseudoviruses bearing the spike of naturally observed variants; lower = stronger; >10 µg/ml means not reached at the top dose. No active / inactive call. The stated detection limit is 0.0005 µg/ml; values near or below 0.001 µg/ml lie at the floor of the assay. Bounds are passed on as bounds.

B1: XGv-157 (protein)
chain 1: QVQLVQSGAEMKKPGASVKVSCKASGYTFSNYGINWVRQAPGRGLEWMGWISGYNGNTKYAQKLQGRVTMTTDTSTTTAYMELRSLRSDDTAVYYCARTLGLWFGVDNWGQGTLVTVSS
chain 2: NFMLTQPHSVSESPGKTVTISCTGSSGSIASNYVQWYQQRPGSAPTTVIYEDKQRPSGVPDRFSGSIDSSSNSASLTISGLKNEDESDYYCQSYDGSSVIFGGGTK
B2: XGv-039 (protein)
chain 1: EVQLVESGGALVQPGGSLRLSCAVSGFTFSTYDMHWVRQTTGGRLEWVSTIGTAGDTYYSDSVKGRFTISRENAKNSLYLQMNSLRAGDTAVYYCARGGNGYHWYFDLWGRGTLVSVSS
chain 2: DIQMTQSPSSLSASVGDRVTITCRASQSISSYLNWYQQKPGKAPKLLIYASSTLQSGVPSRFSGSGSGTDFTLTISSLQPEDFATYYCQQSYTMPPVTFGQGTRLDIK
B3: XGv-073 (protein)
chain 1: EVQLVESGGALVQPGGSLRLSCAASGFTFSTYDMHWVRQSTGKGLEWVSAIGTAGDTYYSDSVKGRFTISRENAKNSLYLQMNSLRAGDTAVYYCGRGGNGYHWYFDLWGRGTLVSVSS
chain 2: DIQMTQSPSSLSASVGDRVTITCRASQSISSYLNWYQQKPGKAPKLLIYASSTLQSGVPSRFSGSGSGTDFTLTISSLQPEDFATYYCQQSYSMPPVTFGQGTRLDIK
B4: XGv-030 (protein)
chain 1: EVQLVESGGGLVQPGGSLRLSCAASGFSFSTYSLNWVRQAPGKGLEWVSYISSSSITIYYAHSVKGRFTISRDDAKNSLYLQVNNLRDEDTAVYYCARVLGFSDYVWGSYQRGLYGMDVWGQGTTVSVSS
chain 2: QSALTQPASVSGSPGQSIAISCTGTSSDVGGYDFVSWYQQHPGKAPKLLIYDVTNRPSGISNRFSGSKSGNTASLTISGLQTEDEADYYCSSFTSSNTLPFVFGTGTTVTVL
B5: XGv-056 (protein)
chain 1: EVQLVESGGGLVQPGGSLRLSCAAFGFSFSIYDMHWVRQTTGKGLEWVSGIGTTGDTYYPDSVKGRFTISREDAKNSLYFQMNSLRAGDTAVYYCARVGRGFGEIGYDFWGQGTLVTVSS
chain 2: SYVLTQPPSVSVAPGKTARITCGGNNIGSKSVHWYQQKPGQAPVLVIYYNSDRPSGIPERFSGSNSGNTATLTISGVEAGDEADYYCQVWNSRSDHAVVFGGGTRL
B6: XGv-057 (protein)
chain 1: EVQLVESGGGLVQPGGSLRLSCAASGFSFSIYDMHWVRQTTGKGLEWVSGIGTTGDTYYPDSVKGRFTISREDAKNSLYLQMNSLRAGDTAVYYCARVGRGFGEIGYDFWGQGTLVTVSS
chain 2: SYVLTQPPSVSVAPGKTARITCGGNNIGSKSVHWYQQKPGQAPVLVIYYNSDRPSGIPERFSGSNSGNTATLTISGVEAGDEADYYCQVWNSRSDHAVVFGGGTRLTVL
B7: XGv-101 (protein)
chain 1: QVQLVQSGTEMKKPGASVKVSCKASGYTFGSYGISWVRQAPGQGLEWMGWISAYDGNTNYAQKVKGRVTMTRDTSTSTVYMELRSLRSDDTAVYYCARVDSYYSDSSAYYFDYWGQGTLVTVSS
chain 2: EIVMTQSPATLSVSLGERATLSCRASQSVSSHLAWYQQKPGQAPRLLIYGASTRATGVPARFSGSGSGTEFTLSISSLQSEDFAVYYCQQYSDWPPLFTFGPGSKVDVK
B8: XGv-050 (protein)
chain 1: EVQLVESGGGLVQPGGSLRLSCAASGFTFSRYDMHWVRQAAGKGLEWVSGIGAPGDTYYAGSVKGRFTISRENAKTSLHLQMNNLRAGDTAVYYCTRGWFGENYMDVWGKGTTVTVSS
chain 2: EIVLTQSPATLSLSPGERATLSCRASQSVSNHLAWFQQKPGQSPRLLIYDASNRATGIPARFSGSGSGTDFTLTISSLEPEDFAIYYCHQRSNWPTFGQGTKVEIK
B9: XGv-038 (protein)
chain 1: QVQLVESGGGVVQPGRSLRLSCAASGFTFNNYGIHWVRQAPGKGLEWVAVIWYDGTNKYYADSVKGRFTISRDNSKNTVYLQMNSLRAEDTAVYYCARDYEITMAAPDYWGQGTLVTVSS
chain 2: DVVMTQSPLSLPVTLEQPASISCRSSQSLVSSDGNTYLNWFQQRPGQSPRRLIYKVSNRDSGVPDRFSGSGSGTDFTLKINRVEAEDVGIYYCMQGSHWPPTFGGGTKVEIK
B10: XGv-116 (protein)
chain 1: QVQLVESGGGVVQPERSLRLSCAASGFTFSSYTMHWVRQAPGKGLEWVAIISYDGSSEYYADSVKGRFTISRDNSKNTLYLQMNSLRVEDTAVYYCARVDRSGYYTWGEEHYWGQGALVTVSS
chain 2: EIVLTQSPVTLSLSPGERATLSCRASQSVSSYLAWYQQKPGQAPRLLIYDASNRATGIPARFSGSGSGTDFTLTISSLEPEDFAVYYCHQRSNWPGTFGQGTKVEIK
B11: XGv-105 (protein)
chain 1: EVQLLESGGGLVQPGGSLRLSCAASTITFSGYAMNWVRQAPGKGLEWVSGISGTGGRTYYADSVKGRFTISRDESKNTLFLQMNSLRAEDTAVYYCAKDGIFGYCDGGICYSAYFDSWGQGTLVTVSS
chain 2: QSVLTQPPSASGTPGQRVTISCSGSSSNIGRNTVNWYQQLPGTAPKLLIYTNNQRPSGVPDRFSGSKSGTSASLAVSGLQSEDEADYYCAAWDDSLNGVVFGGGTKLTVL
B12: XGv-094 (protein)
chain 1: QVQLQESGPGLVKPSQTLLLTCAVSGDSISSSSWWSWVRQSPRKGLEWIGEIYHRASTNYNPSLKSRATISVDKSKNQFSLKLSSVTAADTAMYYCARRRPSDYIAFDLWGQGTMVTVSS
chain 2: DIQMTQSPSSLSASVGDRVTITCRANQDINDYLIWYQQKPGKAPKLLIYAASSLQSGVPSRFTGSGSGTHFTLTISSLQPEDFATYYCQQSYSSTLTFGGGTQVQIK
B13: XGv-055 (protein)
chain 1: QVQLVQSGAEVKKPGSSVKVSCKASGGTFSSYALSWVRQAPGQGLEWMGGIIPIFGTTNYAQKFQGRVTITADESSSTAYMELSSLRSEDTAVYYCARLDGYSFGHNRYYQDGMDDWGQGTTVTVSS
chain 2: DIQMTQSPSSLSASVGDRVTITCRASQGIRNDLGWYQQKPGKAPKCLIYAASTLQSGVPSRFSGSGSGTEFTLTISSLQPEDFATYYCLQQNIYPRTFGQGTKVEIK

For the first test, the target named is SARS-CoV-2 Omicron BA.1 spike pseudovirus. Kind of test: pseudovirus neutralization IC50; higher = weaker neutralization. Here is the method:
(§1)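 Single-round VSV luciferase pseudovirus mixed with antibody dilutions for 1 h and put on Huh-7 cells for about a day; IC50 from the dose curve.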
On to B1, for which the “pseudovirus neutralization IC50” value was above 10 µg/mL.
Turning to B2, the “pseudovirus neutralization IC50” value is above 10 µg/mL.
On the same count and under the same terms, next, B3: above 10 µg/mL; B4: 1.33 µg/mL; B5: above 10 µg/mL.
For the molecule B6, the “pseudovirus neutralization IC50” value was above 10 µg/mL.
Consider B7, for which the “pseudovirus neutralization IC50” value turned out to be 0.378 µg/mL.
As to B8, the “pseudovirus neutralization IC50” value worked out at 2.54 µg/mL.
Same read-out and setting: the figure for B9 is 1.64 µg/mL.
With B10, the “pseudovirus neutralization IC50” value amounted to 1.01 µg/mL.
Same read-out and setting: the figure for B11 is 2.26 µg/mL; for B12 it is above 10 µg/mL.
Turning to B13, the “pseudovirus neutralization IC50” value came out at 0.0392 µg/mL.

In the next test the target is SARS-CoV-2 Omicron BA.2 spike pseudovirus. The description is as above. Here is the method:
as §1
Regarding B1, the “pseudovirus neutralization IC50” value was above 10 µg/mL.
As to B2, the “pseudovirus neutralization IC50” value was above 10 µg/mL.
Still for that read-out and setting: next, B3: above 10 µg/mL.
Same read-out and setting: the figure for B4 is 1.33 µg/mL.
On the same count and under the same terms, the figure for B5 is above 10 µg/mL; for B6 it is 3.26 µg/mL; for B7 it is 0.914 µg/mL.
With B8, the “pseudovirus neutralization IC50” value stood at 3.5 µg/mL.
On the same count and under the same terms, the figure for B9 is 1.48 µg/mL; for B10 it is above 10 µg/mL; for B11 it is above 10 µg/mL.
On the same count and under the same terms, next, B12: above 10 µg/mL.
B13: the “pseudovirus neutralization IC50” value was determined as 0.00261 µg/mL.

In another test the target is SARS-CoV-2 Omicron BA.2.75 spike pseudovirus. Described as above. Here is the method:
as §1
Turning to B1, the “pseudovirus neutralization IC50” value is above 10 µg/mL.
The same measure, in the same setting: next, B2: above 10 µg/mL; B3: above 10 µg/mL.
Still for that read-out and setting: the figure for B4 is 1.77 µg/mL; for B5 it is above 10 µg/mL.
On the same count and under the same terms, next, B6: above 10 µg/mL.
Consider B7, for which the “pseudovirus neutralization IC50” value amounted to 0.902 µg/mL.
Still for that read-out and setting: next, B8: 0.0708 µg/mL; B9: 1.2 µg/mL; B10: above 10 µg/mL.
Take B11: the “pseudovirus neutralization IC50” value worked out at 6 µg/mL.
For the molecule B12, the “pseudovirus neutralization IC50” value is above 10 µg/mL.
On to B13, for which the “pseudovirus neutralization IC50” value turned out to be 0.0241 µg/mL.

In the next test the target is SARS-CoV-2 Omicron BA.5 spike pseudovirus. The test is described as above. Here is the method:
as §1
As to B1, the “pseudovirus neutralization IC50” value was above 10 µg/mL.
The same measure, in the same setting: next, B2: above 10 µg/mL; B3: above 10 µg/mL; B4: 1.77 µg/mL.
For B5, the “pseudovirus neutralization IC50” value was above 10 µg/mL.
As for B6, the “pseudovirus neutralization IC50” value was above 10 µg/mL.
On to B7, for which the “pseudovirus neutralization IC50” value is 0.829 µg/mL.
On the same count and under the same terms, the figure for B8 is above 10 µg/mL; for B9 it is 2.52 µg/mL.
Still for that read-out and setting: next, B10: above 10 µg/mL; B11: 6.46 µg/mL; B12: above 10 µg/mL.
For the molecule B13, the “pseudovirus neutralization IC50” value is 2.66 µg/mL.

A further test deals with SARS-CoV-2 Omicron BQ.1.1 spike pseudovirus. The test is described as above. Here is the method:
as §1
As for B1, the “pseudovirus neutralization IC50” value is above 10 µg/mL.
For B2, the “pseudovirus neutralization IC50” value was above 10 µg/mL.
On the same count and under the same terms, the figure for B3 is above 10 µg/mL; for B5 it is above 10 µg/mL.
As for B6, the “pseudovirus neutralization IC50” value is above 10 µg/mL.
Same read-out and setting: the figure for B7 is above 10 µg/mL; for B8 it is above 10 µg/mL; for B9 it is above 10 µg/mL.
Regarding B10, the “pseudovirus neutralization IC50” value is above 10 µg/mL.
For B11, the “pseudovirus neutralization IC50” value was above 10 µg/mL.
Same read-out and setting: next, B12: above 10 µg/mL; B13: above 10 µg/mL.

The next test has as its target SARS-CoV-2 Omicron XBB spike pseudovirus. Described as above. Here is the method:
as §1
On to B1, for which the “pseudovirus neutralization IC50” value was above 10 µg/mL.
For the molecule B2, the “pseudovirus neutralization IC50” value was above 10 µg/mL.
On the same count and under the same terms, the figure for B3 is above 10 µg/mL; for B5 it is above 10 µg/mL.
The same measure, in the same setting: the figure for B6 is above 10 µg/mL; for B7 it is above 10 µg/mL.
On to B8, for which the “pseudovirus neutralization IC50” value was above 10 µg/mL.
Turning to B9, the “pseudovirus neutralization IC50” value is above 10 µg/mL.
On the same count and under the same terms, next, B10: above 10 µg/mL.
Same read-out and setting: next, B11: 5.26 µg/mL.
Same read-out and setting: next, B12: above 10 µg/mL; B13: above 10 µg/mL.

In a further test the target is SARS-CoV-2 early D614G spike pseudovirus. The test is described as above. Here is the method: as §1
As for B1, the “pseudovirus neutralization IC50” value was determined as 0.715 µg/mL.
The same measure, in the same setting: the figure for B2 is above 10 µg/mL.
The same measure, in the same setting: the figure for B3 is 0.49 µg/mL; for B4 it is 4.59 µg/mL.
Take B5: the “pseudovirus neutralization IC50” value is 0.769 µg/mL.
With B6, the “pseudovirus neutralization IC50” value was 0.465 µg/mL.
Regarding B7, the “pseudovirus neutralization IC50” value came out at 3.07 µg/mL.
Turning to B8, the “pseudovirus neutralization IC50” value amounted to 0.00917 µg/mL.
Consider B9, for which the “pseudovirus neutralization IC50” value is 2.52 µg/mL.
Still for that read-out and setting: next, B10: 0.063 µg/mL; B11: 1.69 µg/mL.
As to B12, the “pseudovirus neutralization IC50” value was 0.0767 µg/mL.
Same read-out and setting: next, B13: 0.0169 µg/mL.
